Anti-infective test results gathered from many reports (values: NIAID ChemDB through PubChem).

Common to all: toxicity to cultured cells; cells: MT-4; endpoint: CC50

Lines come from different laboratories, so protocols vary. CCn is the concentration with n% toxicity to the cells. a–b is a range or a potency band.

SMILES,result
Cc1cn([C@H]2C=C[C@@H](CO)O2)c(=O)[nH]c1=O,1.2 µM
Cc1ccnc2c1NC(=O)c1cccnc1N2C1CC1,>0.06 µM
C1CNCCNCCCN(CCN2CCCNCCNCCCNCC2)CCNC1,349 µM
CCCN(C)C(=O)Oc1nsnc1-c1c(Cl)ccc(C(=O)OCC)c1Cl,25 µM
CCc1c(Sc2ccccc2)n(COCc2ccccc2)c(=O)[nH]c1=O,30 µM
CC[C@]1(CO)O[C@@H](n2cc(C)c(=O)[nH]c2=O)C[C@@H]1O,>400 µM
Nc1ncnc2c1ncn2/C=C1/C[C@H]1CO,>100 µM
CCCCOc1nc(N)nc2c1ncn2[C@H]1C[C@H](N=[N+]=[N-])[C@@H](CO)O1,<200 µM
CC(C)[C@H](NC(=O)N(C)Cc1ccccn1)C(=O)N[C@@H](Cc1ccccc1)[C@H](O)[C@H](O)[C@H](Cc1ccccc1)NC(=O)[C@@H](NC(=O)N(C)Cc1ccccn1)C(C)C,>0.2 µM
Cc1nc(CCCCCCC(=O)c2ccccc2)n2nc(-n3cncc3C)ccc12,26 µM
C=C(COCP(=O)(O)O)Cn1cnc2c(=O)[nH]c(N)nc21,>100 µM
CC(C)Oc1nc(N)nc2c1ncn2[C@H]1C[C@H](N=[N+]=[N-])[C@@H](CO)O1,~200 µM
Nc1ncnc2c1ncn2C[C@H]1C[C@@]1(CO)c1ccccc1,>100 µg/mL
CC1(C)S[C@H]([C@H](NC(=O)Cc2ccccc2)C(=O)NCc2ccccc2)N[C@H]1C(=O)NCCNC(=O)[C@@H]1N[C@@H]([C@H](NC(=O)Cc2ccccc2)C(=O)NCc2ccccc2)SC1(C)C,≥100 µM
C#C[C@]1(CO)O[C@@H](n2cnc3cncnc32)C[C@@H]1O,>400 µM
O=C1c2cccn2-c2ccc(Cl)cc2S(=O)(=O)N1C1CC1,>200 µM
COc1cc(O)c(-c2coc3cc(O)ccc3c2=O)c(OC)c1CC=C(C)C,64 µg/mL
Cc1nc(CCCCCCC(O)c2ccccc2)n2nc(-n3ccnc3)ccc12,26 µM
CN(c1nc(N)nc2c1ncn2[C@H]1C[C@H](N=[N+]=[N-])[C@@H](CO)O1)C1CC1,<200 µM
Cc1nc(CCCCCCC(O)c2ccccc2)n2nc(Cl)ccc12,250 µM
O=C1Nc2c(C(F)(F)F)ccnc2N(C2CC2)c2ncccc21,>200 µM
CC(C)=CCc1cc(C2CC(=O)c3c(cc(O)c(CC=C(C)C)c3O)O2)ccc1O,14 µg/mL
NC(=O)c1nn([C@H]2C[C@H](O)[C@@H](CO)O2)cc1I,>300 µM
CC(C)[C@H](NC(=O)N(C)Cc1ccccn1)C(=O)N[C@@H](Cc1ccccc1)[C@@H](O)[C@H](O)[C@H](Cc1ccccc1)NC(=O)[C@@H](NC(=O)N(C)Cc1ccccn1)C(C)C,>1.54 µM
Nc1ccn([C@@H]2CC(CO)(CO)CS2)c(=O)n1,>100 µg/mL
CCN(C)C(=O)Oc1nsnc1-c1c(Cl)cccc1Cl,29 µM
Cc1cn([C@H]2C[C@H](N=[N+]=[N-])[C@@H](COP(=O)(OCCSC(=O)C(C)(C)C)Oc3ccccc3)O2)c(=O)[nH]c1=O,>10 µM
C#CCN1C(=O)c2cccn2-c2ccc(Cl)cc2S1(=O)=O,66.6 µM
COC(=O)c1nn(COC(CO)CO)cc1I,>300 µM
Cc1nn(-c2ccccc2)c2nc(NC(C)(C)C)oc12,18 µM
CC(=O)C1(c2ccccc2)C(=O)C=C2N(C1=O)c1ccc(Cl)cc1C2(C)C,>6.5 µM
C#CC1(CO)O[C@@H](n2c(Cl)nc3c(=O)[nH]c(N)nc32)[C@H](O)[C@@H]1O,>400 µM
Cc1cn([C@H]2C[C@H](N=[N+]=[N-])[C@@H](CO)O2)c(=O)[nH]c1=O,1 µg/mL
O=C1NS(=O)(=O)c2cc(Cl)ccc2-n2cccc21,≥200 µM
CC(C)(C)NC(=O)[C@@H]1C[C@@H]2CCCC[C@@H]2CN1CC(O)CNC(=O)[C@@H]1N[C@@H]([C@H](NC(=O)Cc2ccccc2)C(=O)NCCNC(=O)OC(C)(C)C)SC1(C)C,>100 µM
CC1=CC2c3c(O)cc(-c4cc5ccc(O)cc5o4)cc3OC3(c4ccc(O)cc4O)Oc4cc(O)ccc4C(C1)C23,2 µg/mL
CCN1C2C(S(=O)(=O)c3ccc(C)cc3)=NCN2c2ccccc2S1(=O)=O,>200 µM
Cc1cn([C@H]2C[C@H](N=[N+]=[N-])[C@@H](CO)O2)c(=O)[nH]c1=O,1.1 µg/mL
COc1c(CC=C(C)C)c(O)cc2c1[C@@H]1Oc3cc(O)c(CC=C(C)C)cc3[C@@H]1CO2,8 µg/mL
CC(C)n1c(/C=C/[C@@H](O)C[C@@H](O)CC(=O)O)c(-c2ccc(F)cc2)c2ccccc21,0.8–5.6 µg/mL
CCCN(C)C(=O)Oc1nsnc1-c1c(Cl)ccc([N+](=O)[O-])c1Cl,54 µM
Cc1nn(-c2ccccc2)c2nn(N)nc12,154 µM
Cc1cn([C@H]2C[C@H](O)[C@@H](CO)[Se]2)c(=O)[nH]c1=O,>100 µM
Nc1ncnc2c1ncn2C=C1CC1CO,79 µM
CC[C@H](C)C(=O)O[C@H]1C[C@@H](C)C=C2C=C[C@H](C)[C@H](CC[C@@H]3C[C@@H](O)CC(=O)O3)[C@H]21,0.8–5.6 µg/mL
CCCN(C)C(=O)Oc1nsnc1-c1c(Cl)ccc(C(=O)O)c1Cl,>256 µM
CCCCNc1nc(N)nc2c1ncn2[C@H]1C[C@H](N=[N+]=[N-])[C@@H](CO)O1,<200 µM
Cc1cn(CC2(COCP(=O)(OC(C)C)OC(C)C)CC=CC2)c(=O)[nH]c1=O,>100 µg/mL
Cc1cn([C@H]2C[C@H](N=[N+]=[N-])[C@@H](CO)O2)c(=O)[nH]c1=O,30 µM
CCc1c(Sc2cc(C)cc(C)c2)n(COCc2ccccc2)c(=O)[nH]c1=O,20 µM
Cc1nc(CCCCCCC(=O)c2ccccc2)n2nc(-n3cccc3)ccc12,26 µM
C#C[C@]1(CO)O[C@@H](n2cc(I)c(=O)[nH]c2=O)C[C@@H]1O,>400 µM
NC(=O)c1nn([C@H]2CC[C@@H](CO)O2)cc1I,>300 µM
Cc1cc(SC2=C(O)C[C@](CCc3ccc(N)cc3)(C(C)C)OC2=O)c(C(C)(C)C)cc1CO,>250 µg/mL
S=c1[nH]c2cc(Cl)cc3c2n1CCN1CCCCC31,>200 µM
CCOC(=O)CNc1c([N+]#N)c(C)nn1-c1ccccc1,122 µM
CC1(C)C2=CC(=O)C(c3ccccc3)([N+](=O)[O-])C(=O)N2c2ccc(Cl)cc21,>13.4 µM
[N-]=[N+]=N[C@H]1C[C@H](n2cnc3c(NC4CC4c4ccccc4)nc(N)nc32)O[C@@H]1CO,32 µM
Cc1nc(CCCCCCC(=O)c2ccccc2)n2nc(-n3cccn3)ccc12,26 µM
Cc1cn([C@H]2C[C@H](N=[N+]=[N-])[C@@H](CO)O2)c(=O)[nH]c1=O,150 µM
CCCN(C)C(=O)Oc1nsnc1-c1c(Cl)ccc(C(N)=O)c1Cl,166 µM
O=S1(=O)N=Cc2cccn2-c2ccc(Cl)cc21,7.1 µM
CC(C)OP(=O)(COCC1(Cn2ccc(=O)[nH]c2=O)CC=CC1)OC(C)C,>100 µg/mL
O=S1(=O)NC(c2ccccc2)c2cccn2-c2ccc(Cl)cc21,≥200 µM
C1CNCCNCCCN(CCCN2CCCNCCNCCCNCC2)CCNC1,>1865 µM
CCN1C(c2ccccc2)c2cccn2-c2ccc(Cl)cc2S1(=O)=O,7.4 µM
CCCN(C)C(=O)Oc1nsnc1-c1c(Cl)cccc1Cl,29 µM
C[C@H](Cn1cnc2c(N)ncnc21)OCP(=O)(O)O,>100 µM
N#Cc1nc(N)nc2c1ncn2[C@H]1C[C@H](N=[N+]=[N-])[C@@H](CO)O1,>200 µM
CC1NS(=O)(=O)c2cc(Cl)ccc2NC1=O,≥200 µM
C1CNCCNCCCN[C@H]([C@@H]2CNCCCNCCNCCCN2)CNC1,362 µM
C#CC1(CO)O[C@@H](n2cc(/C=C/Br)c(=O)[nH]c2=O)C[C@@H]1O,1.5 µM
CN(C)c1nc(N)nc2c1ncn2[C@H]1C[C@H](N=[N+]=[N-])[C@@H](CO)O1,>200 µM
Cc1cn(C[C@@H]2C[C@@]2(CO)c2ccccc2)c(=O)[nH]c1=O,>100 µg/mL
CC(=O)Oc1ccccc1C(=O)O,>1000 µM
CC(C)(C)NC(=O)[C@@H]1C[C@@H]2CCCC[C@@H]2CN1CC(O)CNC(=O)[C@@H]1N[C@@H]([C@H](NC(=O)Cc2ccccc2)C(=O)NCCNC(=O)CCCC[C@@H]2SC[C@@H]3NC(=O)N[C@@H]32)SC1(C)C,>100 µM

The last 4 rows once more:

SMILES	result
CN(C)c1nc(N)nc2c1ncn2[C@H]1C[C@H](N=[N+]=[N-])[C@@H](CO)O1	>200 µM
Cc1cn(C[C@@H]2C[C@@]2(CO)c2ccccc2)c(=O)[nH]c1=O	>100 µg/mL
CC(=O)Oc1ccccc1C(=O)O	>1000 µM
CC(C)(C)NC(=O)[C@@H]1C[C@@H]2CCCC[C@@H]2CN1CC(O)CNC(=O)[C@@H]1N[C@@H]([C@H](NC(=O)Cc2ccccc2)C(=O)NCCNC(=O)CCCC[C@@H]2SC[C@@H]3NC(=O)N[C@@H]32)SC1(C)C	>100 µM